Experimental data taken from US20040131567A1 (priority 2002, published 2004).

System: gram-positive and gram-negative pathogens
Test: Phenol-coefficient type assay, all pathogens tested (Tables 1 and 2)
Type: cell-based
Conditions: cultures held 72 hours

For d-limonene, which “emergence of resistance (mutagenic or plasmid transposon)” value is on record?
The value was “no mutagenic or plasmid transposon was noted”.
